For this data set, the target named is T1, RadA WT (EMSA) (Streptococcus pneumoniae (R800 derivative)) (UniProt A0A237IXT5).
T1 sequence (looked up, limits assumed): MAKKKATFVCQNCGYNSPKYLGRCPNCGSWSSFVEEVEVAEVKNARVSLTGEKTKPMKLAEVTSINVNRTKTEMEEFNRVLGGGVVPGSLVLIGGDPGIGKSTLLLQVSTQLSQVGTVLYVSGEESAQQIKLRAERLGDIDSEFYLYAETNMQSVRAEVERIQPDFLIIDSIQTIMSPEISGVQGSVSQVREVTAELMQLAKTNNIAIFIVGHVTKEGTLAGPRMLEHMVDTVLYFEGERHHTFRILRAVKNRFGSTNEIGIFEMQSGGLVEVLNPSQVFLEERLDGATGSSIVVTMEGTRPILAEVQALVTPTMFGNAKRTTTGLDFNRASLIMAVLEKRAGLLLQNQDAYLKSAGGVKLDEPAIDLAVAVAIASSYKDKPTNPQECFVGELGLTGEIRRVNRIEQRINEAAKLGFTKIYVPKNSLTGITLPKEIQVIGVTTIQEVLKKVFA
Kind of data set: EMSA. To be noted: 10 mM Mg acetate, 100-900 nM protein, 10 nM DNA, EMSA: 50 mM Tris pH 7.5, 100 mM NaCl (printed as 100 M), 1 mM DTT, 0.1 mg/mL BSA, 6% glycerol, room temperature 15-20 min, recombinant protein, protein details: Strep-tag II-GFP removed by TEV. On the technique in general: In EMSA bound probe runs differently from free probe, usually more slowly.

The text below walks through data of PMC11612176 (The EMBO Journal, 2024).

The exact form of at least one protein or probe is not confirmed. At least one verdict was read from the data and is not stated in words by the source. Protein sequences can lack the tags named with them.

As for “AATCATGGTCATAGCTGTTTCCTGTGTGAATAGCAATGTAATCGTCTATGACGTTAAACCATCGATAGCAGCACCGTAATCAGTAGCGACAGAATCAAGT (double strand) [Ovio9/Olea41 dsDNA 100 bp]”, the binding result (label: 3'-Cy3 on strand 1) was “binds”.

In the case of “AATCATGGTCATAGCTGTTTCCTGTGTGAATAGCAATGTAATCGTCTATGACGTTAAACCATCGATAGCAGCACCGTAATCAGTAGCGACAGAATCAAGT [Ovio9 ssDNA 100 nt]”, the binding result (label: 3'-Cy3, single-stranded DNA) is reported as “binds”.
